{"source": "paper PMC7390954", "about": "(Frontiers in Microbiology, 2020)", "key": {"[1]": {"tested_on": "P. aeruginosa UCBPP-PA14 transposon (Tn) insertion mutant library", "settings": "sub-MIC, BM2 20 μM Mg2+"}, "[2]": {"tested_on": "P. aeruginosa UCBPP-PA14 Tn insertion mutants", "settings": "sltB1 (PA14_12080) Tn mutant; BM2 20 μM Mg2+"}, "[3]": {"settings": "Tn insertions in PA14_18330 (arnT)"}, "[4]": {"settings": "Tn insertions in PA14_18340 (arnD)"}, "[5]": {"settings": "Tn insertions in PA14_18360 (arnC)"}, "[6]": {"settings": "Tn insertions in PA14_42920 (tssK-2, hsiJ2)"}, "[7]": {"settings": "Tn insertions in PA14_48970 (bacteriophage Pf1 helix destabilizing protein)"}, "[8]": {"settings": "Tn insertions in PA14_49180 (phoP)"}, "[9]": {"settings": "Tn insertions in PA14_58090 (asmA)"}, "[10]": {"settings": "Tn insertions in PA14_63150 (pmrA)"}, "[11]": {"settings": "Tn insertions in PA14_63160 (pmrB)"}}, "note": "Values joined by “and” are separate entries in the source; they are usually repeats but may differ in a detail not shown here. Equal entries are not always repeated. Where two headings read alike, the source gives them in different places."}
{"compound": "colistin", "values": [{"measurement": "log2-fold change of normalized UID, treated vs untreated", "setting": "[1]; [3]", "result": "−5.03"}, {"measurement": "log2-fold change of normalized UID, treated vs untreated", "setting": "[1]; [4]", "result": "−4.92"}, {"measurement": "log2-fold change of normalized UID, treated vs untreated", "setting": "[1]; [5]", "result": "−4.97"}, {"measurement": "log2-fold change of normalized UID, treated vs untreated", "setting": "[1]; Tn insertions in PA14_18370 (arnB)", "result": "−5.10"}, {"measurement": "log2-fold change of normalized UID, treated vs untreated", "setting": "[1]; [6]", "result": "−3.47"}, {"measurement": "log2-fold change of normalized UID, treated vs untreated", "setting": "[1]; [7]", "result": "−3.03"}, {"measurement": "log2-fold change of normalized UID, treated vs untreated", "setting": "[1]; Tn insertions in PA14_49000", "result": "−1.80"}, {"measurement": "log2-fold change of normalized UID, treated vs untreated", "setting": "[1]; [8]", "result": "−1.26"}, {"measurement": "log2-fold change of normalized UID, treated vs untreated", "setting": "[1]; [9]", "result": "−1.58"}, {"measurement": "log2-fold change of normalized UID, treated vs untreated", "setting": "[1]; [10]", "result": "−4.86"}, {"measurement": "log2-fold change of normalized UID, treated vs untreated", "setting": "[1]; [11]", "result": "−7.19"}, {"measurement": "increased susceptibility of mutant relative to wild-type", "setting": "[2]", "result": 2, "unit": "fold"}]}
{"compound": "CC(C)CCCCC(=O)N[C@@H](CCN)C(=O)N[C@H](C(=O)N[C@@H](CCN)C(=O)N[C@H]1CCNC(=O)[C@H]([C@@H](C)O)NC(=O)[C@H](CCN)NC(=O)[C@H](CCN)NC(=O)[C@H](CC(C)C)NC(=O)[C@@H](Cc2ccccc2)NC(=O)[C@H](CCN)NC1=O)[C@@H](C)O", "note": "[PMB, polymyxin B2]", "values": [{"measurement": "log2-fold change of normalized UID, treated vs untreated", "setting": "[1]; Tn insertions in PA14_00720", "result": -1.141}, {"measurement": "log2-fold change of normalized UID, treated vs untreated", "setting": "[1]; Tn insertions in PA14_03410 (tRNA-Arg)", "result": -2.878}, {"measurement": "log2-fold change of normalized UID, treated vs untreated", "setting": "[1]; Tn insertions in PA14_05520 (mexR)", "result": -2.2}, {"measurement": "log2-fold change of normalized UID, treated vs untreated", "setting": "[1]; Tn insertions in PA14_08460", "result": -1.454}, {"measurement": "log2-fold change of normalized UID, treated vs untreated", "setting": "[1]; Tn insertions in PA14_08540 (mepM1)", "result": -2.878}, {"measurement": "log2-fold change of normalized UID, treated vs untreated", "setting": "[1]; Tn insertions in PA14_09220 (pchB)", "result": -1.556}, {"measurement": "log2-fold change of normalized UID, treated vs untreated", "setting": "[1]; Tn insertions in PA14_09300", "result": -1.205}, {"measurement": "log2-fold change of normalized UID, treated vs untreated", "setting": "[1]; Tn insertions in PA14_09350", "result": -1.219}, {"measurement": "log2-fold change of normalized UID, treated vs untreated", "setting": "[1]; Tn insertions in PA14_12080 (sltB1)", "result": -3.686}, {"measurement": "log2-fold change of normalized UID, treated vs untreated", "setting": "[1]; Tn insertions in PA14_13880", "result": -1.293}, {"measurement": "log2-fold change of normalized UID, treated vs untreated", "setting": "[1]; Tn insertions in PA14_16280", "result": -1.771}, {"measurement": "log2-fold change of normalized UID, treated vs untreated", "setting": "[1]; Tn insertions in PA14_17940 (glpR)", "result": -1.662}, {"measurement": "log2-fold change of normalized UID, treated vs untreated", "setting": "[1]; [3]", "result": "−5.04 and -5.048"}, {"measurement": "log2-fold change of normalized UID, treated vs untreated", "setting": "[1]; [4]", "result": "−3.93 and -3.9371"}, {"measurement": "log2-fold change of normalized UID, treated vs untreated", "setting": "[1]; [5]", "result": "−4.99 and -4.994"}, {"measurement": "log2-fold change of normalized UID, treated vs untreated", "setting": "[1]; Tn insertions in PA14_20940", "result": -1.293}, {"measurement": "log2-fold change of normalized UID, treated vs untreated", "setting": "[1]; Tn insertions in PA14_22840", "result": -1.149}, {"measurement": "log2-fold change of normalized UID, treated vs untreated", "setting": "[1]; Tn insertions in PA14_23370 (orfK)", "result": -2.206}, {"measurement": "log2-fold change of normalized UID, treated vs untreated", "setting": "[1]; Tn insertions in PA14_23890", "result": -1.478}, {"measurement": "log2-fold change of normalized UID, treated vs untreated", "setting": "[1]; Tn insertions in PA14_24420", "result": -1.331}, {"measurement": "log2-fold change of normalized UID, treated vs untreated", "setting": "[1]; Tn insertions in PA14_27190 (tRNA-Ser)", "result": "−1.87 and -1.878"}, {"measurement": "log2-fold change of normalized UID, treated vs untreated", "setting": "[1]; Tn insertions in PA14_31430", "result": -1.247}, {"measurement": "log2-fold change of normalized UID, treated vs untreated", "setting": "[1]; Tn insertions in PA14_33780", "result": -1.068}, {"measurement": "log2-fold change of normalized UID, treated vs untreated", "setting": "[1]; Tn insertions in PA14_34940", "result": -1.186}, {"measurement": "log2-fold change of normalized UID, treated vs untreated", "setting": "[1]; Tn insertions in PA14_40560", "result": -3.293}, {"measurement": "log2-fold change of normalized UID, treated vs untreated", "setting": "[1]; Tn insertions in PA14_41090 (mltD)", "result": -3.151}, {"measurement": "log2-fold change of normalized UID, treated vs untreated", "setting": "[1]; Tn insertions in PA14_41260 (parR)", "result": -3.359}, {"measurement": "log2-fold change of normalized UID, treated vs untreated", "setting": "[1]; [6]", "result": "−3.34 and -3.35"}, {"measurement": "log2-fold change of normalized UID, treated vs untreated", "setting": "[1]; Tn insertions in PA14_48510", "result": -1.994}, {"measurement": "log2-fold change of normalized UID, treated vs untreated", "setting": "[1]; Tn insertions in PA14_48520", "result": -1.08}, {"measurement": "log2-fold change of normalized UID, treated vs untreated", "setting": "[1]; Tn insertions in PA14_48910", "result": -4.381}, {"measurement": "log2-fold change of normalized UID, treated vs untreated", "setting": "[1]; [7]", "result": "−4.04 and -4.048"}, {"measurement": "log2-fold change of normalized UID, treated vs untreated", "setting": "[1]; Tn insertions in PA14_48990", "result": -1.078}, {"measurement": "log2-fold change of normalized UID, treated vs untreated", "setting": "[1]; Tn insertions in PA14_49000", "result": "−1.48 and -1.484"}, {"measurement": "log2-fold change of normalized UID, treated vs untreated", "setting": "[1]; Tn insertions in PA14_49010", "result": -1.399}, {"measurement": "log2-fold change of normalized UID, treated vs untreated", "setting": "[1]; Tn insertions in PA14_49020", "result": -1.85}, {"measurement": "log2-fold change of normalized UID, treated vs untreated", "setting": "[1]; [8]", "result": "−2.80 and -2.803"}, {"measurement": "log2-fold change of normalized UID, treated vs untreated", "setting": "[1]; Tn insertions in PA14_51310", "result": -1.052}, {"measurement": "log2-fold change of normalized UID, treated vs untreated", "setting": "[1]; Tn insertions in PA14_54750", "result": -1.371}, {"measurement": "log2-fold change of normalized UID, treated vs untreated", "setting": "[1]; Tn insertions in PA14_56950 (colR)", "result": "-1.0 and -1.071"}, {"measurement": "log2-fold change of normalized UID, treated vs untreated", "setting": "[1]; Tn insertions in PA14_57100 (ampG)", "result": -2.087}, {"measurement": "log2-fold change of normalized UID, treated vs untreated", "setting": "[1]; Tn insertions in PA14_57510", "result": -1.177}, {"measurement": "log2-fold change of normalized UID, treated vs untreated", "setting": "[1]; [9]", "result": "−4.56 and -4.564"}, {"measurement": "log2-fold change of normalized UID, treated vs untreated", "setting": "[1]; Tn insertions in PA14_59120", "result": -1.181}, {"measurement": "log2-fold change of normalized UID, treated vs untreated", "setting": "[1]; Tn insertions in PA14_60400 (rpsT)", "result": -2.463}, {"measurement": "log2-fold change of normalized UID, treated vs untreated", "setting": "[1]; Tn insertions in PA14_62040", "result": -1.263}, {"measurement": "log2-fold change of normalized UID, treated vs untreated", "setting": "[1]; Tn insertions in PA14_63040", "result": -1.753}, {"measurement": "log2-fold change of normalized UID, treated vs untreated", "setting": "[1]; [10]", "result": "−5.87 and -5.878"}, {"measurement": "log2-fold change of normalized UID, treated vs untreated", "setting": "[1]; [11]", "result": "−6.21 and -6.212"}, {"measurement": "log2-fold change of normalized UID, treated vs untreated", "setting": "[1]; Tn insertions in PA14_64260", "result": -1.556}, {"measurement": "log2-fold change of normalized UID, treated vs untreated", "setting": "[1]; Tn insertions in PA14_65300 (hflX)", "result": -1.377}, {"measurement": "log2-fold change of normalized UID, treated vs untreated", "setting": "[1]; Tn insertions in PA14_69250", "result": -2.956}, {"measurement": "log2-fold change of normalized UID, treated vs untreated", "setting": "[1]; Tn insertions in PA14_69470 (algR)", "result": -2.293}, {"measurement": "increased susceptibility of mutant relative to wild-type", "setting": "[2]", "result": 4, "unit": "fold"}]}
